What was measured:
[1] = test system: CaSki cells; assay: Targeted cell killing assay (MTS) with fixed toxin concentration; type: cell-based, human; conditions: equivalent concentrations, without CD71mab-saporin
[2] = test system: SK-BR-3 cells; assay: as above; type: cell-based, human; conditions: equivalent concentrations, without CD71mab-saporin

Substance | cell killing activity of conjugate alone [1] | cell killing activity of conjugate alone [2]
Cetuximab-(SC-SO1861)^4: SO1861-SC-Mal conjugated via cysteine residues to Cetuximab, DAR 4 | could not induce any cell killing activity | could not induce any significant cell killing activity
Cetuximab-(EMCH-SO1861)^4: SO1861-EMCH conjugated to Cetuximab cysteines, hydrazone comparator | – | could not induce any significant cell killing activity

— patent US20240115712A1, “SEMICARBAZONE-BASED SAPONIN CONJUGATE” (priority 2021, published 2024)
